The record followed here is patent publication US12635689B2, “Antifungal compositions” (priority 2019, dated 2026).

In one assay the test system is M. oryzae germlings. Put plainly: Conidia germination and appressorium formation on glass slides. The note with it: for germination and appressorium formation of M. oryzae germlings: 3 h on glass slides.
Assay [1] deals with Magnaporthe oryzae mitochondria. Put plainly: Mitochondrial potential. The note with it: M. oryzae.

Take octadecyltrimethylammonium: in the assay with M. oryzae germlings, the “relative effectiveness in inhibiting germination and appressoria” value was “slightly more effective than C18-DMS+”; the “germination and appressorium formation of M. oryzae germlings” value (“germination and appressorium formation” below) is “suppress germination and abolish appressorium formation”.

As to dodecyltriphenylphosphonium, the mitochondrial potential entry in assay [1] is “reduce the mitochondrial potential”. With dodecylguanidinium, the “germination and appressorium formation” value in the assay with M. oryzae germlings is “suppress germination and abolish appressorium formation”. In addition, the mitochondrial potential result in assay [1] was “depolarisation of the mitochondria”.

With octadecyldimethylsulfonium, the “germination and appressorium formation” value in the assay with M. oryzae germlings was “suppress germination and abolish appressorium formation”.
